Measured values from several laboratories, pooled; numbers as filed in NIAID ChemDB.

All rows: whole-cell or culture tests; species: HIV-1

Fold resistance has wild type as its base. ECn is the concentration giving n% inhibition of infection, replication or growth. Percent inhibition refers to the dose given; in toxicity tests it is the harm to the cells. An empty or dashed field is not shown. Lines come from different laboratories, so protocols vary.

Cc1cc(C)c(-n2nnnc2SCC(=O)Nc2cccnc2Cl)c(C)c1 ; cell line: MT-4 ; method: p24 ; read-out: EC95 ; value: <10 µM
CCCCCCCCCCCCCCCCOP(=O)(OC[C@H]1OC(O)[C@H](O)[C@@H](O)[C@@H]1O)OC[C@H]1O[C@@H](n2cc(C)c(=O)[nH]c2=O)C[C@@H]1N=[N+]=[N-] ; strain: LAV-Bru ; cell line: CEM ; method: RT activity ; setting: 15 d ; read-out: inhibition ; tested at: 1 µM ; value: 96%
O=C1N(Cc2ccc(CO)cc2)[C@H](Cc2ccccc2)[C@H](O)[C@@H](O)[C@@H](Cc2ccccc2)N1Cc1ccc(CO)cc1 ; strain: NL4-3 ; mutations: PR-I84V ; cell line: MT-4 ; method: p24 ; read-out: EC95 ; value: 3 µM
Cc1ccnc2c1NC(=O)c1cccnc1N2C1CC1 ; strain: NNRTI-resistant (RT V106I E138K P236L) ; mutations: RT-V106I E138K P236L ; cell line: MAGI ; method: β-galactosidase ; read-out: EC50 ; value: 0.079 µM
CCn1nc(Cc2ccc(C)cc2)cc1C1CCN(C[C@H]2CN([C@@H](C(=O)O)C(C)(C)C)C[C@@H]2c2cccc(F)c2)CC1 ; strain: BaL ; cell line: HeLa ; method: β-galactosidase ; setting: 50% human serum ; read-out: EC90 ; value: 0.033 µM
Cc1cn([C@H]2C[C@H](N=[N+]=[N-])[C@@H](COP(=O)(O)OC[C@H]3OC(O)[C@@H](O)[C@@H](O)[C@@H]3O)O2)c(=O)[nH]c1=O ; strain: LAV-Bru ; cell line: U-937 ; method: RT activity ; setting: 14 d ; read-out: inhibition ; tested at: 1 µM ; value: 0%
CCn1nc(Cc2ccc(OC3CC3)cc2)cc1C1CCN(C[C@H]2CN([C@@H](C(=O)O)C(C)(C)C)C[C@@H]2c2cccc(F)c2)CC1 ; strain: BaL ; cell line: HeLa ; method: β-galactosidase ; setting: 50% human serum ; read-out: EC90 ; value: 0.033 µM
CC(C)CN(C[C@@H](O)[C@H](Cc1ccccc1)NC(=O)[C@H](CC(N)=O)NC(=O)c1ccc2ccccc2n1)C(=O)NC(C)(C)C ; strain: NL4-3 ; mutations: PR-M46I L63P V82T ; cell line: MT-4 ; method: p24 ; read-out: EC95 ; value: 0.4 µM
O=C1N(Cc2ccc(CO)cc2)[C@H](Cc2ccccc2)[C@H](O)[C@@H](O)[C@@H](Cc2ccccc2)N1Cc1ccc(CO)cc1 ; strain: Clinical isolate P ; cell line: PBMC ; method: p24 ; read-out: inhibition ; tested at: 0.18 µM ; value: 90%
Cc1ccccc1NC(=O)CSc1nnnn1-c1cccc2ccccc12 ; cell line: MT-4 ; method: p24 ; read-out: EC95 ; value: <10 µM
CCn1nc(Cc2cc(C(F)(F)F)cc(C(F)(F)F)c2)cc1C1CCN(C[C@H]2CN([C@@H](C(=O)O)C(C)C)C[C@@H]2c2cccc(F)c2)CC1 ; strain: BaL ; cell line: HeLa ; method: β-galactosidase ; setting: 50% human serum ; read-out: EC90 ; value: >0.3 µM
Cc1cccc(Cl)c1-n1nnnc1SCC(=O)Nc1ccccc1[N+](=O)[O-] ; cell line: MT-4 ; method: p24 ; read-out: EC95 ; value: <10 µM
Cc1cn([C@H]2C[C@H](N=[N+]=[N-])[C@@H](CO)O2)c(=O)[nH]c1=O ; strain: LAI ; cell line: Primary T lymphocytes ; method: p24 / ELISA ; read-out: EC90 ; value: 0.1 µM
CC(C)=CCN1Cc2cc(Cl)cc3[nH]c(=S)n(c23)C[C@@H]1C ; strain: RTMC ; mutations: RT-D67N K70R T215Y K219Q ; cell line: HT4 + HT4 LacZ-1 ; method: plaque count ; read-out: fold resistance ; value: 1.27
Cn1c2ccccc2c2c1cc(C#N)c(=O)n2-c1ccc([N+](=O)[O-])cc1 ; strain: NRTI resistant ; mutations: RT-T69K K70G V75I F77L F116Y Q151M M184V ; cell line: HeLa ; method: luciferase ; read-out: EC50 ; value: 0.425 µM
O=C(CSc1nnnn1-c1cccc(Cl)c1)Nc1ccccc1Cl ; cell line: MT-4 ; method: p24 ; read-out: EC95 ; value: <10 µM
Cc1cn([C@H]2C[C@H](N=[N+]=[N-])[C@@H](COP(=O)(O)OC[C@H]3OC(O)[C@H](O)[C@@H](O)[C@@H]3O)O2)c(=O)[nH]c1=O ; strain: LAV-Bru ; cell line: CEM ; method: RT activity ; setting: 22 d ; read-out: inhibition ; tested at: 25 µM ; value: 92%
CC(C)c1nc(CN(C)C(=O)N[C@H](C(=O)N[C@@H](Cc2ccccc2)C[C@H](O)[C@H](Cc2ccccc2)NC(=O)OCc2cncs2)C(C)C)cs1 ; strain: NL4-3 ; mutations: PR-D30N ; cell line: MT-4 ; method: p24 ; read-out: EC90 ; value: 0.01 µM
Cc1cn([C@H]2C[C@H](N=[N+]=[N-])[C@@H](CO)O2)c(=O)[nH]c1=O ; strain: Recombinant ; mutations: RT-M41L A62V S68N G112S V118I M184V ; cell line: HeLa ; method: luciferase ; read-out: fold resistance ; value: 0.1
Cc1ccc(S(=O)(=O)N(CC(C)C)C[C@@H](O)[C@H](Cc2ccccc2)NC(=O)O[C@H]2CO[C@H]3OCC[C@H]32)cc1 ; strain: IIIB ; mutations: M200I ; cell line: MT-2 ; method: p24 / ELISA ; read-out: fold resistance ; value: 0.8
CC(=O)N1CCC(C(=O)N(CCCN2CCC(Cc3ccc(C(N)=O)cc3)CC2)c2ccc(C)c(Cl)c2)CC1 ; strain: X4 subtype D_2 recombinant ; cell line: U87 (CD4+ CXCR4+) + U87 ; method: luciferase ; read-out: EC50 ; value: >19 µM
c1cc(CN2CCCNCCNCCCNCC2)ccc1CN1CCCNCCNCCCNCC1 ; strain: CM7 CLADE C R5 ; cell line: PBMC ; method: p24 ; read-out: inhibition ; tested at: 0.1 µM ; value: 19%
CCn1nc(Cc2ccc(S(=O)(=O)c3ccccc3)cc2)cc1C1CCN(C[C@H]2CN([C@@H](C(=O)O)C(C)(C)C)C[C@@H]2c2cccc(F)c2)CC1 ; strain: BaL ; cell line: HeLa ; method: β-galactosidase ; read-out: EC90 ; value: <0.00014 µM
O=C(O)P(=O)(O)O ; strain: IIIB ; cell line: PBL ; method: RT activity ; setting: 14 d ; read-out: inhibition ; tested at: 128 µM ; value: 91%
N#CC[C@H](C1CCCC1)n1cc(-c2ncnc3[nH]ccc23)cn1 ; mutations: 4xAZT ; cell line: Primary T lymphocytes ; method: p24 / ELISA ; read-out: EC90 ; value: 2.4 µM
Cc1cn([C@H]2C[C@H](N=[N+]=[N-])[C@@H](CO)O2)c(=O)[nH]c1=O ; strain: IIIB ; mutations: K112M K113E V128I M200I H219P ; cell line: MT-2 ; method: p24 / ELISA ; read-out: fold resistance ; value: 0.6
CC(=O)Nc1ccc(/C=C/c2ccc(N=C=S)cc2S(=O)(=O)O)c(S(=O)(=O)O)c1 ; strain: GB8 ; cell line: JM ; method: syncytia ; read-out: inhibition ; tested at: 100 µg/mL ; value: 100%
CCCOc1ccc(Cc2cc(C3CCN(C[C@H]4CN([C@@H](C(=O)O)[C@H](C)CC)C[C@@H]4c4cccc(F)c4)CC3)n(CC)n2)cc1 ; strain: BaL ; cell line: HeLa ; method: β-galactosidase ; setting: 50% human serum ; read-out: EC90 ; value: 0.3 µM
CC(C)CN(C[C@@H](O)[C@H](Cc1ccccc1)NC(=O)O[C@H]1CCOC1)S(=O)(=O)c1ccc(N)cc1 ; strain: IIIB ; mutations: K112M K113E V128I ; cell line: MT-2 ; method: p24 / ELISA ; read-out: fold resistance ; value: 0.9
CCn1nc(Cc2ccc(Oc3ccccc3)cc2)cc1C1CCN(C[C@H]2CN([C@@H](C(=O)O)C(C)C)C[C@@H]2c2cccc(F)c2)CC1 ; strain: BaL ; cell line: HeLa ; method: β-galactosidase ; setting: 50% human serum ; read-out: EC90 ; value: >0.3 µM
Cc1ccnc2c1NC(=O)c1cccnc1N2C1CC1 ; mutations: RT-D67N K70R T215Y K219Q L100I ; cell line: MT-4 ; read-out: EC95 ; value: 0.4 µM
CC[C@H](C)[C@H](C(=O)O)N1C[C@H](CN2CCC(c3cc(Cc4ccc(OC(F)F)cc4)nn3CC)CC2)[C@@H](c2cccc(F)c2)C1 ; strain: BaL ; cell line: HeLa ; method: β-galactosidase ; read-out: EC90 ; value: <0.00014 µM
Nc1ccn([C@@H]2CS[C@H](CO)O2)c(=O)n1 ; mutations: L74V ; cell line: Primary T lymphocytes ; method: p24 / ELISA ; read-out: EC90 ; value: 2.9 µM

Repeating the final 3 entries:

structure | strain | mutations | cell line | method | setting | read-out | tested at | value
Cc1ccnc2c1NC(=O)c1cccnc1N2C1CC1 |  | RT-D67N K70R T215Y K219Q L100I | MT-4 |  |  | EC95 |  | 0.4 µM
CC[C@H](C)[C@H](C(=O)O)N1C[C@H](CN2CCC(c3cc(Cc4ccc(OC(F)F)cc4)nn3CC)CC2)[C@@H](c2cccc(F)c2)C1 | BaL |  | HeLa | β-galactosidase |  | EC90 |  | <0.00014 µM
Nc1ccn([C@@H]2CS[C@H](CO)O2)c(=O)n1 |  | L74V | Primary T lymphocytes | p24 / ELISA |  | EC90 |  | 2.9 µM